A mixed list of measured activities; the numbers were collected in NIAID ChemDB.

All rows: tests on isolated targets; species: HIV-1; protein: Reverse transcriptase

An empty or dashed field is not shown. Neighbouring rows are from separate reports. ICn is the concentration giving n% inhibition.

| compound | strain or isolate | endpoint | mutations | read by | result |
|---|---|---|---|---|---|
| Cc1cn([C@H]2CC[C@@H](CC(F)(F)P(=O)(O)OP(=O)(O)NP(=O)(O)O)O2)c(=O)[nH]c1=O |  | IC50 |  | fluorescence | ~10 µM |
| C#C[C@@]1(CO)C=C[C@H](n2cc(C)c(=O)[nH]c2=O)O1 |  | IC50 |  | radiometric | 0.2 µM |
| C[C@@H]1O[C@@H](Oc2c(-c3cc(O)c(O)c(O)c3)oc3cc(O)cc(O)c3c2=O)[C@H](O)[C@H](O)[C@H]1O |  | IC50 |  |  | >500 µM |
| Cc1c(C(C)c2c(F)cccc2F)nc(N2CCOCC2)[nH]c1=O | IIIB | IC50 | RT-V106A | nucleotide incorporation / radiometric | >20 µM |
| Cc1cn([C@H]2C[C@H](N=[N+]=[N-])[C@@H](COP(=O)(O)OP(=O)(O)C(F)(F)P(=O)(O)O)O2)c(=O)[nH]c1=O |  | Ki |  | fluorescence | 0.041 µM |
| CC(C)c1c(COC(N)=O)cn(Cc2ccncc2)c1Sc1cc(Cl)cc(Cl)c1 |  | IC50 |  | nucleotide incorporation / radiometric | 0.7 µM |
| Nc1cc(Cl)nc(SC/C=C/c2ccccc2)n1 |  | IC50 | RT-P236L | nucleotide incorporation | 0.066 µM |
| Cc1c(Cc2c(F)cccc2F)nc(N(C)C)[nH]c1=O | IIIB | IC50 |  | nucleotide incorporation / radiometric | 0.8 µM |
| Cc1c(Cc2c(F)cccc2F)nc(SCc2ccc([N+](=O)[O-])cc2)[nH]c1=O |  | IC50 | RT-K103N | nucleotide incorporation / radiometric | >400 µM |
| Cc1cccc(CSc2nc(N)cc(Cl)n2)c1 | RT-WT | IC50 |  | nucleotide incorporation | 0.28 µM |
| Cc1c(Cc2c(Cl)cccc2Cl)nc(SCc2ccc3c(c2)OCO3)[nH]c1=O |  | IC50 | RT-K103N | nucleotide incorporation / radiometric | >400 µM |
| C[C@H]1[C@H](C)Oc2c3c(c4c(-c5ccccc5)cc(=O)oc4c2[C@H]1O)OC(C)(C)C=C3 |  | IC50 |  | nucleotide incorporation | 0.81 µM |
| Cc1c(Cc2c(Cl)cccc2Cl)nc(S(=O)(=O)Cc2ccc([N+](=O)[O-])cc2)[nH]c1=O |  | IC50 | RT-181I | nucleotide incorporation / radiometric | >400 µM |
| O=C(CSc1nnnn1-c1cccc(Cl)c1Cl)Nc1ccccc1[N+](=O)[O-] |  | IC50 |  | nucleotide incorporation / radiometric | <2 µM |
| Cc1cc(C)c2nc(-c3c(F)cccc3F)n(Cc3c(F)cccc3F)c2c1 |  | IC50 |  |  | >10 µM |
| Cc1cn([C@H]2C[C@H](N=[N+]=[N-])[C@@H](CP(=O)(O)OP(=O)(O)C(Cl)(Cl)P(=O)(O)O)O2)c(=O)[nH]c1=O |  | IC50 |  | fluorescence | >10 µM |
| Nc1nc2c(ncn2[C@H]2C=C[C@@H](COP(=O)(O)OP(=O)(O)OP(=O)(O)O)C2)c(=O)[nH]1 |  | IC50 |  | RT activity | 0.05 µM |
| Cc1c(Cc2c(F)cccc2F)nc(SCc2ccc(C(C)C)cc2)[nH]c1=O |  | IC50 | RT-K103N | nucleotide incorporation / radiometric | >400 µM |
| CN(C)c1nc(Cc2c(F)cccc2F)cc(=O)[nH]1 | IIIB | IC50 | RT-Y181I | nucleotide incorporation / radiometric | 3 µM |
| Cc1cccc2c1nc(-c1ccncc1)n2Cc1c(F)cccc1F |  | IC50 |  |  | <10 µM |
| OCc1cn(Cc2ccncc2)c(Sc2cc(Cl)cc(Cl)c2)c1C1CCC1 |  | IC50 | RT-Y181I | nucleotide incorporation / radiometric | 10.4 µM |
| O=C(c1c(F)cccc1F)n1c(-c2c(F)cccc2F)nc2ccccc21 |  | IC50 |  |  | <10 µM |
| Cc1cn([C@H]2CC[C@@H](OCP(=O)(O)OP(=O)(O)OP(=O)(O)O)C2)c(=O)[nH]c1=O |  | IC50 |  | RT activity | 0.11 µM |
| N#Cc1ccc(NC(=S)N[C@@H]2[C@@H]3COc4c(F)ccc(F)c4[C@@H]32)nc1 |  | IC50 | L100I | scintillation proximity / radiometric | 0.0052 µM |
| Cc1ccc2nc(-c3c(F)cccc3F)n(Cc3c(F)cccc3F)c2c1 |  | IC50 |  |  | >10 µM |
| CCOC(=O)c1cn(Cc2ccncc2)c(Sc2cc(Cl)cc(Cl)c2)c1C1CCC1 |  | IC50 |  | nucleotide incorporation / radiometric | 1.04 µM |
| Cc1cccc2c1nc(-c1cccc3ccccc13)n2Cc1c(F)cccc1F |  | IC50 |  |  | >10 µM |
| CC(=O)c1ccccc1NC(=O)CSc1nnnn1-c1c(C)cc(C)cc1C |  | IC50 |  | nucleotide incorporation / radiometric | <2 µM |
| Cc1c(Cc2c(Cl)cccc2Cl)nc(SCc2ccc(Cl)cc2)[nH]c1=O |  | IC50 | RT-181I | nucleotide incorporation / radiometric | >400 µM |
| Cc1cc(C)c(-n2nnnc2SCC(=O)Nc2ccccc2I)c(C)c1 |  | IC50 |  | nucleotide incorporation / radiometric | <2 µM |
| CN(C)C(=O)/C=C/CSc1nc(N)cc(Cl)n1 | RT-WT | IC50 |  | nucleotide incorporation | 0.2 µM |
| Cc1cc(Br)cc(C)c1-n1nnnc1SCC(=O)Nc1ccccc1Cl |  | IC50 |  | nucleotide incorporation / radiometric | <2 µM |
| Cc1nc2ccccc2n1Cc1c(F)cccc1F |  | IC50 |  |  | >10 µM |
| Cc1cc(C)c(-n2nnnc2SCC(=O)Nc2cccc(Cl)c2F)c(C)c1 |  | IC50 |  | nucleotide incorporation / radiometric | <2 µM |
| Cc1cn([C@H]2C[C@H](N=[N+]=[N-])[C@@H](COP(=O)(O)OP(=O)(O)OP(=O)(O)O)[C@@H]2F)c(=O)[nH]c1=O |  | IC50 |  | RT activity | 13.9 µM |
| Cc1c(Cc2c(Cl)cccc2Cl)nc(SCc2ccc3c(c2)C(=O)c2ccccc2C3=O)[nH]c1=O |  | IC50 | RT-181I | nucleotide incorporation / radiometric | >400 µM |
| CC(C)c1ccccc1-n1nnnc1SCC(=O)Nc1ccccc1Cl |  | IC50 |  | nucleotide incorporation / radiometric | <2 µM |
| Cc1cc(C)cc(S(=O)(=O)c2c(C(=O)NNCCO)[nH]c3ccc(Cl)cc23)c1 |  | IC50 | RT-Y181I | nucleotide incorporation / radiometric | 4.6 µM |
| NC(=O)OCc1cn(Cc2ccncc2)c(Sc2cc(Cl)cc(Cl)c2)c1C1CCC1 |  | IC50 | RT-K103N | nucleotide incorporation / radiometric | 75.5 µM |
| CN(C)P(=O)(c1ccccc1)c1c(C(N)=O)[nH]c2ccc(Cl)cc12 |  | IC50 | RT-K103N Y181C |  | >3.57 µM |
| Cc1cn([C@H]2CC[C@@H](COP(=O)(O)OP(=O)(O)OP(=O)(O)O)O2)c(=O)[nH]c1=O |  | IC50 | RT-T139V | nucleotide incorporation / radiometric | 0.1 µM |
| Cc1cc(C)c(-n2nnnc2SCC(=O)Nc2cccc(F)c2C)c(C)c1 |  | IC50 |  | nucleotide incorporation / radiometric | <2 µM |

Repeating the first 6 entries:

| compound | strain or isolate | endpoint | mutations | read by | result |
|---|---|---|---|---|---|
| Cc1cn([C@H]2CC[C@@H](CC(F)(F)P(=O)(O)OP(=O)(O)NP(=O)(O)O)O2)c(=O)[nH]c1=O |  | IC50 |  | fluorescence | ~10 µM |
| C#C[C@@]1(CO)C=C[C@H](n2cc(C)c(=O)[nH]c2=O)O1 |  | IC50 |  | radiometric | 0.2 µM |
| C[C@@H]1O[C@@H](Oc2c(-c3cc(O)c(O)c(O)c3)oc3cc(O)cc(O)c3c2=O)[C@H](O)[C@H](O)[C@H]1O |  | IC50 |  |  | >500 µM |
| Cc1c(C(C)c2c(F)cccc2F)nc(N2CCOCC2)[nH]c1=O | IIIB | IC50 | RT-V106A | nucleotide incorporation / radiometric | >20 µM |
| Cc1cn([C@H]2C[C@H](N=[N+]=[N-])[C@@H](COP(=O)(O)OP(=O)(O)C(F)(F)P(=O)(O)O)O2)c(=O)[nH]c1=O |  | Ki |  | fluorescence | 0.041 µM |
| CC(C)c1c(COC(N)=O)cn(Cc2ccncc2)c1Sc1cc(Cl)cc(Cl)c1 |  | IC50 |  | nucleotide incorporation / radiometric | 0.7 µM |